Pooled drug test results. Numbers come from NIAID ChemDB, via PubChem.

Common to all: growth or infection tests; organism: Varicella zoster virus; cell line: MRC-5; read-out: EC50

An empty or dashed field is not shown. Lines come from different laboratories, so protocols vary. a–b is a range or a potency band. ECn: concentration that inhibits the pathogen or its effect by n%.

compound,strain or isolate,method,value
CC(C)(C)[Si](C)(C)OC[C@H]1O[C@@H](n2ccc(=O)[nH]c2=O)[C@H](O[Si](C)(C)C(C)(C)C)[C@]12O[C@@H]2CO,,plaque count,>194 µM
C[C@H]1[C@H](O)[C@@H](CO)O[C@H]1n1cc(Br)c(=O)[nH]c1=O,CAQU,plaque count,10.75 µg/mL
O=c1[nH]c(=S)n([C@@H]2O[C@H](CO)[C@@H](O)[C@@H]2O)cc1/C=C/c1ccccc1,Kanno-Kohmura (TK-),plaque count,>258.7 µM
Nc1ccn(COC(CO)CO)c(=O)n1,6350,plaque count,17 µM
CCCCc1ccc2cc(-c3ccccc3)cn2c1,G-31,plaque count,>40 µM
Cc1cn([C@@H]2O[C@H](CO[Si](C)(C)C(C)(C)C)C3(O[C@H]3C(=O)NO)[C@H]2O[Si](C)(C)C(C)(C)C)c(=O)[nH]c1=O,,plaque count,>5 µM
N#Cc1ccn2cc(-c3ccccc3)cc2c1,G-31,plaque count,>40 µM
CCc1cn([C@@H]2O[C@H](CO)[C@@H](O)[C@@H]2O)c(=S)nc1N,HOSEN (TK+),plaque count,>264.9 µM
COC(=O)[C@@H]1O[C@]12[C@@H](CO[Si](C)(C)C(C)(C)C)O[C@@H](n1ccc(=O)[nH]c1=O)[C@@H]2O[Si](C)(C)C(C)(C)C,,plaque count,>20 µM
O=c1[nH]c(=O)n([C@@H]2O[C@H](CO)[C@@H](O)[C@@H]2F)cc1I,CAQU,plaque count,0.0015 µg/mL
COC(=O)c1cccn2cc(-c3ccccc3)cc12,G-31,plaque count,>40 µM
Nc1nc2c(ncn2COC2COP(=O)(O)OC2)c(=O)[nH]1,OKA,plaque count,0.3–0.6 µM
COC(=O)/C=C1/[C@@H](O[Si](C)(C)C(C)(C)C)[C@H](n2cc(C)c(=O)[nH]c2=O)O[C@@H]1CO[Si](C)(C)C(C)(C)C,,plaque count,4.4 µM
C[C@H]1[C@H](O)[C@@H](CO)O[C@H]1n1cc(I)c(N)nc1=O,CAQU,plaque count,0.95 µg/mL
CC(O)c1cn([C@@H]2O[C@H](CO)[C@@H](O)[C@@H]2O)c(=S)nc1N,Kanno-Kohmura (TK-),plaque count,>244.8 µM
Fc1cccc(-c2cc3ccccn3c2)c1,G-31,plaque count,>40 µM
C=Cc1cn([C@@H]2O[C@H](CO)[C@@H](O)[C@@H]2O)c(=S)nc1N,HOSEN (TK+),plaque count,253.8 µM
CC(C)(C)[Si](C)(C)OC[C@H]1O[C@@H](n2ccc(=O)[nH]c2=O)[C@H](O[Si](C)(C)C(C)(C)C)[C@@]12O[C@H]2C(N)=O,,plaque count,>8 µM
CCc1cn([C@H]2C[C@H](O)[C@@H](CO)O2)c(=S)[nH]c1=O,CAQU (TK+),plaque count,9.5 µM
COc1ncnc2c1ncn2[C@@H]1O[C@H](CO)[C@@H](O)[C@@H]1O,TK-,cytopathic effect,>100 µM

Repeating the final 2 entries:

compound | strain or isolate | method | value
CCc1cn([C@H]2C[C@H](O)[C@@H](CO)O2)c(=S)[nH]c1=O | CAQU (TK+) | plaque count | 9.5 µM
COc1ncnc2c1ncn2[C@@H]1O[C@H](CO)[C@@H](O)[C@@H]1O | TK- | cytopathic effect | >100 µM